In patent publication US20130065259:

Assays:
[1] = test system: BoNT/A cleavable peptide #116: [4-Mu]TRIDEANQRATK[DABCYL]-Nle
[2] = test system: BoNT/A cleavable peptide #115: [5-Fam]TRIDEANQRATK[DABCYL]-Nle

Work on “BoNT/A (form not stated where used: holotoxin or complex)” yielded a KM [1] of 2.62 µM and a KM [2] of 4.99 µM.
